From patent US20200024330A1 come the findings set out here.

Common to all, as to assay: cell-based or functional assay
In experiment [1] the target is HIV-1 clade B pseudoviruses (Env) of the cross-clade 162-pseudovirus panel, n=31.
Experiment [2] addresses HIV-1 Env of all pseudoviruses of the cross-clade 162-pseudovirus panel (n=162).
Experiment [3] addresses HIV-1 clade AE pseudoviruses (Env) of the cross-clade 162-pseudovirus panel, n=10.
Experiment [4] addresses HIV-1 clade D pseudoviruses (Env) of the cross-clade 162-pseudovirus panel, n=25.
In experiment [5] the target is HIV-1 Env of the clade AG pseudoviruses of the cross-clade 162-pseudovirus panel (n=10).
Experiment [6] has as its target HIV-1 Env of the clade G pseudoviruses of the cross-clade 162-pseudovirus panel (n=15).
The target in experiment [7] is HIV-1 clade AG pseudoviruses (Env) of the cross-clade 162-pseudovirus panel, n=10.
Experiment [8] deals with HIV-1 clade C pseudoviruses (Env) of the cross-clade 162-pseudovirus panel, n=27.
Experiment [9] has as its target All HIV-1 pseudoviruses (Env) of the cross-clade 162-pseudovirus panel, n=162.
The target in experiment [10] is HIV-1 clade G pseudoviruses (Env) of the cross-clade 162-pseudovirus panel, n=15.
Experiment [11] deals with HIV-1 clade F pseudoviruses (Env) of the cross-clade 162-pseudovirus panel, n=15.
For experiment [12], the target named is HIV-1 Env of the clade AE pseudoviruses of the cross-clade 162-pseudovirus panel (n=10).
Experiment [13] has as its target HIV-1 clade A pseudoviruses (Env) of the cross-clade 162-pseudovirus panel, n=26.
Experiment [14] has as its target 162-pseudovirus panel representing all major circulating HIV-1 subtypes.
Experiment [15] addresses panel of HIV-1 pseudoviruses of Table 52.
Experiment [16] has as its target HIV-1 Env of all pseudoviruses of the cross-clade 162-pseudovirus panel (n = 162).

B1: 4995_P16 (PGT-145) (antibody, V domains shown)
VH: QVQLVQSGAEVKKPGSSVKVSCKASGNSFSNHDVHWVRQATGQGLEWMGWMSHEGDKTGLAQKFQGRVTITRDSGASTVYMELRGLTADDTAIYYCLTGSKHRLRDYFLYNEYGPNYEEWGDYLATLDVWGHGTAVTVSS
VL: EVVITQSPLFLPVTPGEAASLSCKCSHSLQHSTGANYLAWYLQRPGQTPRLLIHLATHRASGVPDRFSGSGSGTDFTLKISRVESDDVGTYYCMQGLHSPWTFGQGTKVEIK
Take B1: the Median IC50 (µg/ml) against viruses neutralized with an IC50 <50 µg/ml in [1] stood at 0.54 µg/mL; in [3], 11.1 µg/mL; in [4], 5.27 µg/mL; in experiment [7], 0.87 µg/mL; in experiment [8], 1.76 µg/mL; in experiment [9], 2.1 µg/mL. In addition, the Median IC50 (µg/ml) against viruses neutralized with an IC50 <50 µg/ml in experiment [10] was 2.18 µg/mL; in experiment [11], 9.74 µg/mL; in [13], 4.3 µg/mL. Also, the Median IC50 (µg/ml) against all viruses in experiment [2] came out at 0.88 µg/mL; in experiment [5] it was 1.27 µg/mL; in [6] it was 0.21 µg/mL; in [12], 1.17 µg/mL. Also, in experiment [14], the Percent viruses neutralized, IC50 <0.1 µg/ml is 27%. In addition, the Percent viruses neutralized, IC50 <1 µg/ml in experiment [14] amounted to 52%. For the same molecule, the Percent viruses neutralized, IC50 <50 µg/ml in experiment [14] was 78%.

B2: PGT-144 (4970_K22) (antibody, V domains shown)
VH: QVQLVQSGAEVKKPGSSVKVSCKASGNTFRKYDVHWVRQATGQGLEWVGWMSHEGDKTESAQRFKGRVSFTRDNSASTAYIELRGLTSDDTAIYYCTGGSKHRLRDYVLYDDYGLINQQEWNDYLEFLDVWGHGTAVTVSS
VL: DTVVTQSPLSLSVTPGEAASMSCTSTQSLRHSNGANYLAWYQHKPGQSPRLLIRLGSQRASGVPDRFSGSGSGTHFTLKISRVEADDAAIYYCMQGLNRPWTFGKGTKLEIK
For B2, in [15], the median IC50 (ug/ml), pseudovirus neutralization came to 0.16 µg/mL.

B3: 4980_N08 (PGT-143) (antibody, V domains shown)
VH: QVQLEQSGAEVKKPGSSVKVSCKASGNTFSKYDVHWVRQATGQGLEWVGWMSHEGDKTESAQRFKGRVTFTRDTSASTAYMELRGLTSDDTAIYYCTRGSKHRLRDYVLYDDYGLINYQEWNDYLEFLDVWGHGTAVTVSS
VL: DTVVTQSPLSLPVTPGEAASMSCTSTQSLRHSNGANYLAWYQHKPGQSPRLLIRLGSQRASGVPDRFSGSGSGTHFTLKISRVEPEDAAIYYCMQGLNRPWTFGKGTKLEIK
With B3, the Median IC50 (µg/ml) against viruses neutralized with an IC50 <50 µg/ml is 2.84 µg/mL in [1]; 0.05 µg/mL in experiment [3]; 8.36 µg/mL in experiment [4]; 4.97 µg/mL in experiment [7]; 2.02 µg/mL in experiment [8]; 2.6 µg/mL in experiment [9]. Further, the Median IC50 (µg/ml) against viruses neutralized with an IC50 <50 µg/ml was 1.85 µg/mL in [10], 6.08 µg/mL in [11] and 1.57 µg/mL in experiment [13]. Besides, the Median IC50 (µg/ml) against all viruses was found to be 13.8 µg/mL in experiment [2], 41.2 µg/mL in experiment [5] and 4.77 µg/mL in experiment [6]. The molecule also returned a Percent viruses neutralized with an IC50 <50 µg/ml in [16] of 58%. The molecule further registered a Percent viruses neutralized, IC50 <0.1 µg/ml in [14] of 17%. The Percent viruses neutralized, IC50 <1 µg/ml in [14] came out at 37%. Besides, the Percent viruses neutralized, IC50 <50 µg/ml in experiment [14] was determined as 56%.

B4: 4993_K13 (PGT-141) (antibody, V domains shown)
VH: QVQLVQSGPEVKKPGSSVKVSCKASGNTFSKYDVHWVRQATGQGLEWVGWMSHEGDKTESAQRFKGRVTFTRDTSASTAYMELRGLTSDDTAIYYCTRGSKHRLRDYVLYDDYGLINYQEWNDYLEFLDVWGHGTAVTVSS
VL: DTVVTQSPLSLPVTPGEAASMSCSSTQSLRHSNGANYLAWYQHKPGQSPRLLIRLGSQRASGVPDRFSGSGSGTHFTLKISRVEAEDAAIYYCMQGLNRPWTFGKGTKLEIK
Turning to B4, the Median IC50 (µg/ml) against viruses neutralized with an IC50 <50 µg/ml in [1] stood at 4.62 µg/mL; in [3], 0.03 µg/mL; in experiment [4] it was 25.1 µg/mL; in [7], 3.66 µg/mL; in experiment [8], 3.83 µg/mL; in experiment [9], 3.8 µg/mL. The Median IC50 (µg/ml) against viruses neutralized with an IC50 <50 µg/ml in [10] was determined as 1.58 µg/mL; in [11], 4.55 µg/mL; in experiment [13], 2.88 µg/mL. Further, the values for the Median IC50 (µg/ml) against all viruses in [2], in experiment [5] and in experiment [6] were 18 µg/mL, 31 µg/mL and 4.69 µg/mL, respectively. Further, the Percent viruses neutralized, IC50 <0.1 µg/ml in experiment [14] stood at 15%. The same molecule showed a Percent viruses neutralized, IC50 <1 µg/ml in experiment [14] of 36%. Also, the Percent viruses neutralized, IC50 <50 µg/ml in experiment [14] amounted to 56%.

B5: 4995_E20 (PGT-142) (antibody, V domains shown)
VH: QVQLVQSGPEVKKPGSSVKVSCKASGNTFSKYDVHWVRQATGQGLEWVGWISHERDKTESAQRFKGRVTFTRDTSATTAYMELRGLTSDDTAIYYCTRGSKHRLRDYVLYDDYGLINYQEWNDYLEFLDVWGHGTAVTVSS
VL: DTVVTQSPLSLPVTPGEAASMSCSSTQSLRHSNGANYLAWYQHKPGQSPRLLIRLGSQRASGVPDRFSGSGSGTHFTLKISRVEAEDAAIYYCMQGLNRPWTFGKGTKLEIK
Take B5: the Median IC50 (µg/ml) against viruses neutralized with an IC50 <50 µg/ml in experiment [1] came out at 9.52 µg/mL; in [3], 0.03 µg/mL; in [4], 9.75 µg/mL; in experiment [7], 5.15 µg/mL; in [8], 1.69 µg/mL; in experiment [9] it was 3.75 µg/mL. Besides, the results for the Median IC50 (µg/ml) against viruses neutralized with an IC50 <50 µg/ml in experiment [10], in [11] and in experiment [13] were 1.99 µg/mL, 3.45 µg/mL and 2.37 µg/mL, respectively. Also, the Median IC50 (µg/ml) against all viruses came out at 9.46 µg/mL in experiment [2], 16.4 µg/mL in [5] and 5.95 µg/mL in [6]. The same molecule displayed a Percent viruses neutralized, IC50 <0.1 µg/ml in experiment [14] of 23%. The molecule further displayed a Percent viruses neutralized, IC50 <1 µg/ml in experiment [14] of 40%. This molecule yielded a Percent viruses neutralized, IC50 <50 µg/ml in experiment [14] of 57%.
